The values that follow are results of earlier work, collected in PMC8795881.

As a reminder, the pKa is the pH at which an ionisable group is half protonated.

The target in this data set is His37 (UniProt position 37, IIGILHLILWI). Put plainly: NMR (solid-state). The note with it: drug-free channel in lipid bilayer.

In the case of “Matrix protein 2 (M2 proton channel), transmembrane domain peptide M2(22-46) / M2TM (Influenza A virus (strain not stated))”, the pKa is 8.2.
